Measurements reported in PubChem BioAssay AID624099 (ICCB-Longwood, 2012)
Purpose: 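Human genes that papillomavirus E2 requires to repress the HPV18 LCR promoter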 (primary screen). System: human C33A cervical carcinoma cells (HPV-negative) stably expressing BPV1 E2 and an HPV18 LCR luciferase reporter. Reagents: siRNA pool against human genes, 40 nM. Timing: 72 h. Detection: 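Per-well luciferase luminescence, z-scored on each plate against the plate mean and SD with control wells left out, then averaged across three replicate plates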. Reading the numbers: mean z-score and z-score: higher = stronger reporter signal, weaker E2 silencing. Rule for the call: 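Mean z ≥ 2 together with z ≥ 2 in two or more of the three replicates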.
The whole screen tested about 21,000 reagents; below is a random part of them. Over the whole deposit, 497 (2.4%) are marked active. 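Higher z means weaker E2 silencing; only reporter increases were scored, and knock-downs that hurt cell survival may mask genuine repressor factors.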 Reagents against one gene are numbered here.

gene knocked down	pool no.	mean z-score	z-score, replicate A	z-score, replicate B	z-score, replicate C	activity call
HIP1R	1	0.39	0.69	0.21	0.25	inactive
CHMP1B	1	-1.13	-1.35	-0.93	-1.11	inactive
LOC148766 (retired record)	1	0.66	0.6	0.77	0.6	inactive
NFE2L2	1	-0.07	-0.1	-0.01	-0.08	inactive
KCNA6	1	1.63	1.47	1.48	1.93	inactive
RIT1	1	-1.2	-1.23	-1.26	-1.12	inactive
LY6S-AS1	1	-0.42	-0.32	-0.36	-0.57	inactive
XIRP1	1	-0.56	-0.49	-0.76	-0.41	inactive
PADI3	1	0.65	0.73	0.77	0.45	inactive
ALG12	1	0.3	0.19	0.14	0.56	inactive
RPL23	1	-4.05	-4.06	-4.12	-3.98	inactive
KIAA1549L	1	1.26	0.92	1.67	1.19	inactive
KIAA1549L	2	-0.54	-0.49	-0.62	-0.51	inactive
ASB1	1	0.25	0.27	0.51	-0.04	inactive
FLACC1	1	0.47	0.06	0.46	0.89	inactive
CD2AP	1	0.91	1.17	0.96	0.6	inactive
AVPR2	1	-0.89	-0.62	-1.22	-0.83	inactive
MAP1A	1	-1.28	-1.44	-1.73	-0.68	inactive
LOC345711 (retired record)	1	-0.25	0.13	-0.48	-0.4	inactive
NFU1	1	-0.73	-0.73	-0.64	-0.82	inactive
H2BC21	1	0.72	1.29	0.69	0.17	inactive
SLC5A7	1	0.67	0.03	0.45	1.54	inactive
LOC123855 (retired record)	1	-0.01	0.25	-0.05	-0.24	inactive
GGT7	1	-1.13	-1.41	-0.95	-1.03	inactive
PLPBP	1	-0.88	-0.88	-0.95	-0.8	inactive
HMGN2P46	1	-1.89	-1.54	-2.29	-1.85	inactive
CRYBA2	1	-0.18	-0.32	0.13	-0.34	inactive
SERP2	1	-0.15	0	0.09	-0.53	inactive
VCY	1	-0.09	-0.14	-0.19	0.05	inactive
ZDHHC16	1	3.51	3.23	3.86	3.43	active
ANKRD46	1	-0.62	-0.59	-0.34	-0.93	inactive
STRN	1	1.56	1.63	1.58	1.46	inactive
KIF16B	1	-0.72	-0.9	-0.5	-0.75	inactive
SHLD2P1	1	-1.32	-1.59	-1.28	-1.09	inactive
LRRC41	1	-0.18	-0.08	-0.32	-0.15	inactive
ATP6V1C2	1	-0.36	-0.23	-0.4	-0.45	inactive
CD38	1	0.22	-0.26	0.42	0.51	inactive
SCML2	1	-0.3	-1.49	0.6	0.01	inactive
CD164L2	1	-0.54	-0.58	-0.3	-0.76	inactive

Reagents listed so far called active (1):
gene knocked down	pool no.	mean z-score	z-score, replicate A	z-score, replicate B	z-score, replicate C	activity call
ZDHHC16	1	3.51	3.23	3.86	3.43	active
